Anti-infective test results gathered from many reports (values: NIAID ChemDB through PubChem).

Common to all: growth or infection tests; organism: Herpes simplex virus 1; read-out: inhibition

Lines come from different laboratories, so protocols vary. Blank or dashed fields: not listed here. Percent inhibition refers to the dose given; in toxicity tests it is the harm to the cells.

Cc1cn([C@@H]2O[C@H](CO)[C@@H](O)[C@@H]2F)c(=O)[nH]c1=O ; read by: virus yield ; dose: 10 µM ; cell line: VERO ; strain or isolate: F ; value: 99.65%
Cc1ccccc1Cn1cnc(=N)c2[nH]cnc21 ; read by: plaque count ; dose: 6 µg/mL ; cell line: BSC-1 ; value: 0%
Nc1nc(=O)n([C@@H]2O[C@H](CO)[C@@H](O)[C@@H]2F)cc1I ; read by: cytopathic effect ; dose: 0.01 µg/mL ; cell line: VERO ; value: ≥25%
N=c1ncn(Cc2ccc(Cl)cc2Cl)c2nc[nH]c12 ; read by: plaque count ; dose: 25 µg/mL ; cell line: BSC-1 ; value: 20%
O=c1ccn([C@@H]2O[C@H](CO)[C@@H](O)[C@@H]2F)c(=O)[nH]1 ; read by: virus yield ; dose: 2.5 µM ; cell line: VERO ; strain or isolate: F ; value: 93.8%
O=c1[nH]c(=O)n([C@H]2C[C@H](O)[C@@H](CO)O2)cc1I ; read by: cytopathic effect ; dose: 0.2 µg/mL ; cell line: PRK ; strain or isolate: KOS ; value: ≥25%
Nc1ncnc2c1ncn2[C@@H]1O[C@H](CO)[C@@H](O)[C@@H]1O ; read by: virus yield ; dose: 5 µg/mL ; cell line: HL ; strain or isolate: VL8737 ; value: 97%
Nc1nc(=O)n([C@@H]2O[C@H](CO)[C@@H](O)[C@@H]2F)cc1I ; read by: virus yield ; dose: 0.5 µM ; cell line: VERO ; strain or isolate: F ; value: 99.08%
Nc1nc2c(ncn2COC(CO)CO)c(=O)[nH]1 ; read by: plaque count ; dose: 2.6 µM ; cell line: WI-38 ; strain or isolate: KOS mutant PFA-R4 ; value: 90%
O=c1[nH]c(=O)n([C@@H]2O[C@H](CO)[C@@H](O)[C@@H]2F)cc1I ; read by: cytopathic effect ; dose: 0.01 µg/mL ; cell line: VERO ; value: ≥25%
N=c1ncn(Cc2ccco2)c2nc[nH]c12 ; read by: plaque count ; dose: 25 µg/mL ; cell line: BSC-1 ; value: 0%
C/C=C/c1cn([C@H]2C[C@H](O)[C@@H](CO)O2)c(=O)[nH]c1=O ; read by: plaque count ; dose: 10 µM ; cell line: VERO ; strain or isolate: TK- ; value: 0%
Clc1ncnc2nc(-c3cscn3)[nH]c12 ; read by: plaque count ; dose: 100 µg/mL ; cell line: VERO ; value: 0%
O=c1ccn([C@H]2C[C@@H](O)[C@H](CO)O2)c(=O)[nH]1 ; read by: plaque count ; dose: 100 µM ; cell line: VERO ; strain or isolate: C42 ; value: <0%
O=c1[nH]c(=O)n([C@@H]2O[C@H](CO)[C@@H](O)[C@@H]2F)cc1I ; read by: virus yield ; dose: 0.5 µM ; cell line: VERO ; strain or isolate: F ; value: 99.5%
CCn1cnc(=N)c2[nH]cnc21 ; read by: plaque count ; dose: 50 µg/mL ; cell line: BSC-1 ; value: 0%

Again, the opening 2 rows:

smiles,read by,dose,cell line,strain or isolate,value
Cc1cn([C@@H]2O[C@H](CO)[C@@H](O)[C@@H]2F)c(=O)[nH]c1=O,virus yield,10 µM,VERO,F,99.65%
Cc1ccccc1Cn1cnc(=N)c2[nH]cnc21,plaque count,6 µg/mL,BSC-1,,0%